Record: PubChem BioAssay AID1259414 (Drosophila RNAi Screening Center, 2018)
The deposit covers about 24,000 reagents; below is an unselected part of those that have a named target and a result. In the full data, about 1,210 (5%) were called active. 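Inactive calls also include excluded dsRNAs with several or no targets, genes unexpressed in JW18, and well A1, regardless of score.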 Unmarked entries are inactive. The numbers tell different reagents against one gene apart.

- Screen: 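Host factors increasing or decreasing Wolbachia levels in cultured fly cells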 (primary screen)
- System: Drosophila JW18 cells infected with Wolbachia
- Reagents: long dsRNA against Drosophila genes, 0.25 µg dsRNA per well of a 384-well plate
- Timing: 5 days
- Challenge: cells persistently infected with Wolbachia before knock-down; no added drug
- Measurement: 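Automated imaging of bacterial rRNA staining divided by host cell count, reported as plate-normalised robust z-score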
- Direction: Wolbachia per cell robust z: higher = more Wolbachia per host cell than the plate typical
- Rule for the call: 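Active if absolute robust z reaches 1.5 in two or more of three replicates, leaving out multi- or no-target dsRNAs, genes unexpressed in JW18 and A1 wells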

Knock-down of Tfb4 (GeneID 33294) #1 gave: Wolbachia per cell robust z, rep 1 = -0.578; Wolbachia per cell robust z, rep 2 = 1.69; Wolbachia per cell robust z, rep 3 = 0.167. Tfb4 (GeneID 33294) #2 showed Wolbachia per cell robust z, rep 1 = -0.431; Wolbachia per cell robust z, rep 2 = -1.01; Wolbachia per cell robust z, rep 3 = 0.112. Against SAK (GeneID 40384) #1, the values are Wolbachia per cell robust z, rep 1 = -0.969; Wolbachia per cell robust z, rep 2 = -4.99; Wolbachia per cell robust z, rep 3 = -0.563. Knock-down of SAK (GeneID 40384) #2 gave: Wolbachia per cell robust z, rep 1 = 1.41; Wolbachia per cell robust z, rep 2 = -0.089; Wolbachia per cell robust z, rep 3 = 0.712. SAK (GeneID 40384) #3 scored Wolbachia per cell robust z, rep 1 = 0.451; Wolbachia per cell robust z, rep 2 = 0.241; Wolbachia per cell robust z, rep 3 = 0.686. Against Hr96 (GeneID 42993), the values are Wolbachia per cell robust z, rep 1 = -8.15; Wolbachia per cell robust z, rep 2 = -0.709; Wolbachia per cell robust z, rep 3 = -0.411.

For Ube3a (GeneID 39266), the entry reads Wolbachia per cell robust z, rep 1 = -0.502; Wolbachia per cell robust z, rep 2 = -0.199; Wolbachia per cell robust z, rep 3 = 0.0261. DIP-alpha (GeneID 31322) #1 showed Wolbachia per cell robust z, rep 1 = -0.442; Wolbachia per cell robust z, rep 2 = 0.345; Wolbachia per cell robust z, rep 3 = -0.545. Against DIP-alpha (GeneID 31322) #2, the entry reads Wolbachia per cell robust z, rep 1 = 0.378; Wolbachia per cell robust z, rep 2 = -1.07; Wolbachia per cell robust z, rep 3 = -0.424. Septin4 (GeneID 32646) #1 showed Wolbachia per cell robust z, rep 1 = 0.918; Wolbachia per cell robust z, rep 2 = 1.08; Wolbachia per cell robust z, rep 3 = -1.55. Knock-down of Septin4 (GeneID 32646) #2 gave: Wolbachia per cell robust z, rep 1 = -1.12; Wolbachia per cell robust z, rep 2 = -0.432; Wolbachia per cell robust z, rep 3 = -1.47. PIG-B (GeneID 38446) #1 showed Wolbachia per cell robust z, rep 1 = -0.224; Wolbachia per cell robust z, rep 2 = 1.24; Wolbachia per cell robust z, rep 3 = 0.566.

For PIG-B (GeneID 38446) #2 the deposit lists Wolbachia per cell robust z, rep 1 = 0.21; Wolbachia per cell robust z, rep 2 = -0.0496; Wolbachia per cell robust z, rep 3 = 0.755. Knock-down of drpr (GeneID 38218) #1 came out at: Wolbachia per cell robust z, rep 1 = 1.26; Wolbachia per cell robust z, rep 2 = 0.921; Wolbachia per cell robust z, rep 3 = 0.558. After knock-down of drpr (GeneID 38218) #2, the screen gave Wolbachia per cell robust z, rep 1 = 0.983; Wolbachia per cell robust z, rep 2 = 0.254; Wolbachia per cell robust z, rep 3 = 0.597. With knock-down of CG11504 (GeneID 43557) the results were Wolbachia per cell robust z, rep 1 = 0.0198; Wolbachia per cell robust z, rep 2 = 0.502; Wolbachia per cell robust z, rep 3 = -0.261. With knock-down of CG43896 (GeneID 39360) #1, the record shows Wolbachia per cell robust z, rep 1 = 0.42; Wolbachia per cell robust z, rep 2 = 0.184; Wolbachia per cell robust z, rep 3 = 0.163. CG43896 (GeneID 39360) #2 gave Wolbachia per cell robust z, rep 1 = 0.772; Wolbachia per cell robust z, rep 2 = 1.06; Wolbachia per cell robust z, rep 3 = 0.0184.

Depletion of CG43896 (GeneID 39360) #3 resulted in: Wolbachia per cell robust z, rep 1 = 0.28; Wolbachia per cell robust z, rep 2 = 1.41; Wolbachia per cell robust z, rep 3 = 0.215. With knock-down of CG1774 (GeneID 43722), the screen gave Wolbachia per cell robust z, rep 1 = 0.356 (active); Wolbachia per cell robust z, rep 2 = -9.79; Wolbachia per cell robust z, rep 3 = -8.5. For CG15044 (GeneID 32834) #1 the deposit lists Wolbachia per cell robust z, rep 1 = -4.11; Wolbachia per cell robust z, rep 2 = -0.121; Wolbachia per cell robust z, rep 3 = -1.47. For CG15044 (GeneID 32834) #2, the entry reads Wolbachia per cell robust z, rep 1 = 0.263; Wolbachia per cell robust z, rep 2 = -1.1; Wolbachia per cell robust z, rep 3 = -0.599. CG15044 (GeneID 32834) #3 scored Wolbachia per cell robust z, rep 1 = -0.024; Wolbachia per cell robust z, rep 2 = -0.915; Wolbachia per cell robust z, rep 3 = 0.13. For sphe (GeneID 32648) the deposit lists Wolbachia per cell robust z, rep 1 = 0.164; Wolbachia per cell robust z, rep 2 = 0.463; Wolbachia per cell robust z, rep 3 = -0.998.
